Results of unrelated studies side by side (data: NIAID ChemDB).

All rows: toxicity to cultured cells; cell line: MT-2; measure: CC50

CCn: concentration that lowers growth or viability of the cells by n%. An empty or dashed field is not shown. Neighbouring rows are from separate reports. Two numbers with a dash give a range or band.

| SMILES | method | result |
|---|---|---|
| COc1ccc(N(C)C(=O)[C@H](Cc2ccccc2)NC(=O)NS(=O)(=O)N[C@@H](Cc2ccccc2)c2nc(C)no2)cc1 | XTT | 100 µM |
| O=c1[nH]nc(Cc2ccc3c(c2)OCO3)c2ccccc12 | propidium iodide | >178 µM |
| C[C@H]1/C=C/[C@@]2(C)CC[C@@H](C(C)(C)O)[C@@H]2[C@@H](O)C[C@](C)(O)/C=C/C1 | MTT | 1345–1456 µM |
| Cc1ccc(-c2ccc(C(=O)NC(CN(C)C)c3nc(C)c(CO)s3)[nH]2)cc1F | XTT / absorbance | >40 µM |
| COc1ccnc2[nH]cc(C(=O)C(=O)N3CCN(C(=O)c4ccccc4)C[C@H]3C)c12 | - | >225 µM |
| C[Si](C)(CCCSc1ncccn1)O[Si](C)(C)CCCSc1ncccn1 | - | 43 µM |
| Cc1cn([C@H]2CC[C@@H](CO)S2)c(=O)[nH]c1=O | - | >100 µg/mL |
| Cc1cn([C@H]2C=C[C@@H](COC(=O)CC3(C)C[C@](C)(O)CO3)O2)c(=O)[nH]c1=O | - | >1000 µM |
| Cc1nnc(-c2ccc3c(=O)n(-c4ccc(Cl)c5c(NS(C)(=O)=O)nn(CC(F)(F)F)c45)c([C@H](Cc4cc(F)cc(F)c4)NC(=O)Cn4nc(C(F)F)c5c4C(F)(F)[C@@H]4C[C@H]54)nc3c2)nc1C | XTT | >0.5 µM |
| C=CCN(C(=O)[C@H](Cc1cc(F)cc(F)c1)NS(=O)(=O)c1cccc(S(=O)(=O)N[C@@H](Cc2cc(F)cc(F)c2)C(=O)N(CC=C)c2ccc(OC)cc2)c1)c1ccc(OC)cc1 | XTT | 100 µM |
| C[Si](C)(CCCNC(=O)c1cc(Cl)ccc1N)O[Si](C)(C)CCCNC(=O)c1cc(Cl)ccc1N | - | 20 µM |
| CC(C)(C#Cc1ccc2c(=O)n(-c3ccc(Cl)c4c(NS(=O)(=O)C5CC5)nn(CC(F)F)c34)c([C@H](Cc3cc(F)cc(F)c3)NC(=O)Cn3nc(C(F)F)c4c3C(F)(F)[C@@H]3C[C@H]43)nc2c1)S(C)(=O)=O | XTT | >0.5 µM |
| CC1=CC2C(=O)c3cc(OCC(=O)c4ccccc4)c(Br)c(O)c3C(=O)C2C(O)=C1 | MTT | 100 µM |
| C[Si](C)(CCCn1ccc2ccccc21)O[Si](C)(C)CCCn1ccc2ccccc21 | - | 14 µM |
| Cn1nc(NS(C)(=O)=O)c2c(Cl)ccc(-n3c([C@H](Cc4cc(F)cc(F)c4)NC(=O)Cn4nc(C(F)F)c5c4C(F)(F)[C@@H]4C[C@H]54)nc4nc(OCc5ncccn5)ccc4c3=O)c21 | XTT | >1 µM |
| Cc1nc(C(CN(C)C)NC(=O)c2ccc(-c3ccc(Cl)cc3)[nH]2)sc1CO | XTT / absorbance | >40 µM |
| CC(C)[C@H](NC(=O)[C@H](Cc1ccccc1)C[C@H](O)[C@H](Cc1ccccc1)NC(=O)OC(C)(C)C)C(=O)N[C@@H](Cc1ccccc1)C(=O)N1CCOCC1 | - | 100 µM |
| Cc1ccc(CN(Cc2cc3cc(C)ccc3[nH]c2=O)C(=O)c2ccco2)cc1 | XTT | >65 µM |
| O=C(NCc1cccnc1)C(=O)N/N=C\c1ccc(-c2cccc(Cl)c2)o1 | XTT | 54.24 µM |
| CCCCCCCCCCCCCCCCCCOCCOP(=O)(O)CO[C@H](CO)Cn1cc(C)c(=O)[nH]c1=O | flow cytometry | 25 µM |
| C[Si](C)(CCCn1cnc2c(N)ncnc21)O[Si](C)(C)CCCn1cnc2c(N)ncnc21 | - | 90 µM |
| O=C1O/C(=C\c2ccc(Cl)c(Cl)c2)c2cc(Cl)c(Cl)cc21 | propidium iodide | >139 µM |
| CCOC(=O)Cc1c(C(C)C)nn(CC(=O)N[C@@H](Cc2ccccc2)C(=O)N(C)c2ccc3c(c2)OCO3)c1C | ATP | >20 µM |
| CCCc1cc(=O)oc2c3c(c4c(c12)OC(C)(C)CC4)O[C@@H](C)[C@H](C)[C@@H]3O | - | 10–20 µM |
| CCCCCCCCCCCCCCCCCCOCCOP(=O)(O)CO[C@H](CO)Cn1cnc2c(N)ncnc21 | flow cytometry | 0.03 µM |
| O=c1[nH]c(=O)n([C@@H]2CO[C@H](CO)O2)cc1I | - | >100 µM |
| C=CCN(C(=O)[C@H](Cc1cc(F)cc(F)c1)NS(=O)(=O)CCCS(=O)(=O)N[C@@H](Cc1cc(F)cc(F)c1)C(=O)N(CC=C)c1ccc(OC)cc1)c1ccc(OC)cc1 | XTT | 100 µM |
| Cc1nn(CCO)c(C(C)C)c1CC(=O)N[C@@H](Cc1ccccc1)C(=O)N(C)c1ccc2c(c1)OCO2 | ATP | >20 µM |
| C=CC1=C(C)C2=NC1=CC1=NC(=Cc3[n-]c4c(c3C)=C([O-])[C@H](C(=O)OC)C=4C3=NC(=C2)[C@@H](C)[C@@H]3CCC(=O)OC/C=C(\C)CCCC(C)CCCC(C)CCCC(C)C)C(CC)=C1C.[Mg+2] | - | >80 µg/mL |
| N#Cc1ccc(Oc2cc(Cl)ccc2Cl)c(OCCn2ccc(=O)[nH]c2=O)c1 | MTT | 59 µM |
| CCOC(=O)Cc1c(C)nn(CC(=O)N[C@@H](Cc2ccccc2)C(=O)N(C)c2ccc3c(c2)OCO3)c1C1CC1 | ATP | >20 µM |
| C=C1CC[C@@H](OC(C)=O)[C@@]2(C)CC[C@]3(O)O[C@@]12C[C@@]3(C)CCC(=O)C(C)C | MTT | 1780 µM |
| C=Cc1c(C)c2cc3nc(cc4[nH]c(cc5nc(cc1[nH]2)C(C)=C5CO)c(C)c4CCC(=O)O)C(CCC(=O)O)=C3C | - | 39 µg/mL |
| CSc1ccc(Cc2nn(C(C)(C)C)c(=O)c3ccccc23)cc1 | propidium iodide | 71.9 µM |
| Cc1nc(C(CN)NC(=O)c2cnc(-c3ccc(Cl)cc3)[nH]2)sc1CO | XTT / absorbance | >51 µM |
| O=C(O[C@@H]1Cc2c(O)cc(O)cc2O[C@@H]1c1cc(O)c(O)c(O)c1)c1cc(O)c(O)c(O)c1 | - | 191.6 µM |
| Cc1ccc(C)n1-c1ccc(C(=O)O)c(O)c1 | XTT | 2755 µM |
| CNc1ccccc1C(=O)NCCC[Si](C)(C)O[Si](C)(C)CCCNC(=O)c1ccccc1NC | - | 12 µM |
| Nc1ccn([C@H]2CC[C@@H](CO)O2)c(=O)n1 | - | >9.8 µg/mL |
| Nc1nc(=O)n([C@@H]2CC[C@H](CO)O2)cc1F | - | >100 µM |
| C=CC[C@H](NC(=O)[C@H](Cc1ccccc1)NS(=O)(=O)N1CCOCC1)C(=O)N[C@@H](CC1CCCCC1)[C@@H](O)C[C@H](C(=O)NCCCC)C(C)C | - | >13 µM |
| NC[C@@H]1O[C@H](O[C@H]2[C@@H](O)[C@H](O[C@@H]3[C@@H](O)[C@H](N)C[C@H](N)[C@H]3O[C@H]3O[C@H](CN)[C@@H](O)[C@H](O)[C@H]3N)O[C@@H]2CO)[C@H](N)[C@@H](O)[C@@H]1O | trypan blue | >300 µM |
| C=CCN(C(=O)[C@H](Cc1cc(F)cc(F)c1)NC(=O)c1nccnc1C(=O)N[C@@H](Cc1cc(F)cc(F)c1)C(=O)N(CC=C)c1ccc(OC)cc1)c1ccc(OC)cc1 | XTT | 100 µM |
| CC(=O)COc1c(Br)c(O)c2c(c1Br)C(=O)C1C=C(C)C=C(O)C1C2=O | MTT | 18 µM |
| Nc1ncnc2c1ncn2[C@H]1CC[C@@H](CO)S1 | - | >100 µg/mL |
| COc1ccc(CCNC(=O)c2ccc(C(=O)NCCc3ccc(OC)c(OC)c3)nc2)cc1OC | XTT | 73.75 µM |
| COc1ccc(N(C)C(=O)[C@H](Cc2ccccc2)NC(=O)NS(=O)(=O)N[C@@H](Cc2ccccc2)c2nnc(SC)o2)cc1 | XTT | 100 µM |
| O=C(Oc1cc(O)cc2c1C[C@@H](OC(=O)c1cc(O)c(O)c(O)c1)[C@@H](c1cc(O)c(O)c(O)c1)O2)c1cc(O)c(O)c(O)c1 | - | >200 µM |
| N#Cc1cc(Cl)cc(Oc2ccc(Cl)cc2OCCn2ccc(=O)[nH]c2=O)c1 | MTT | >100 µM |
| O=C(O[C@@H]1Cc2c(O)cc(O)cc2O[C@@H]1c1cc(O)c(=O)c2c(O)c(O)cc([C@H]3Oc4cc(O)cc(O)c4C[C@H]3OC(=O)c3cc(O)c(O)c(O)c3)c2c1)c1cc(O)c(O)c(O)c1 | - | >200 µM |
| COc1ccc(N(C)C(=O)[C@H](Cc2cc(F)cc(F)c2)NC(=O)Cn2c(=O)c3ccccc3n(CC(=O)N[C@@H](Cc3cc(F)cc(F)c3)C(=O)N(C)c3ccc(OC)cc3)c2=O)cc1 | XTT | 100 µM |
| O=S(=O)(O)c1ccc(-c2c3nc(c(-c4ccc(S(=O)(=O)O)cc4)c4ccc([nH]4)c(-c4ccc(S(=O)(=O)O)cc4)c4nc(c(-c5ccc(S(=O)(=O)O)cc5)c5ccc2[nH]5)C=C4)C=C3)cc1 | - | 21 µg/mL |
| Cc1ccc2c(c1)C(O)(Cc1ccc(Cl)c(Cl)c1)N1CCN=C21 | propidium iodide | 37.8 µM |
| C=Cc1c(C)c2cc3[nH]c(cc4nc(cc5nc(cc1[nH]2)C(C)=C5CCC(=O)O)C(CCC(=O)O)=C4C)c(C)c3C=C | - | 15.8 µM |
| C[Si](O)(O[Si](C)(CCCn1cnc2c(N)ncnc21)c1ccccc1)c1ccccc1 | - | 100 µM |
| CC1=C(CCC(=O)O)c2cc3[nH]c(cc4[nH]c(cc5nc(cc1n2)C(CCC(=O)O)=C5CC(=O)O)c(CCC(=O)O)c4CC(=O)O)c(CCC(=O)O)c3CC(=O)O | - | 22 µg/mL |
| N#Cc1cc(Cl)cc(Oc2cc(Cl)ccc2OCCn2ccc(=O)[nH]c2=O)c1 | MTT | 32 µM |
| Nc1nc2c(ncn2[C@H]2C=C[C@@H](CO)C2)c(=O)[nH]1 | - | 41.8 µg/mL |
| CC(=O)OCC1OC(SC2C(OC(C)=O)OC(COC(C)=O)C(OC(C)=O)C2OC(C)=O)C(OC(C)=O)C(OC(C)=O)C1OC(C)=O | - | >100 µg/mL |
| COc1ccc(Cc2nn(C(C)(C)C)c(=O)c3ccccc23)cc1 | propidium iodide | 73.9 µM |
| COc1ccc(N(C)C(=O)[C@H](Cc2ccccc2)NC(=O)CN2c3ccccc3N(CC(=O)N[C@@H](Cc3ccccc3)C(=O)N(C)c3ccc(OC)cc3)S2(=O)=O)cc1 | XTT | 100 µM |
| C/C=C(\C)C(=O)O[C@@H]1[C@@H](C)[C@]2(O)[C@@H]3C=C(C)C(=O)[C@H]3CC(C=O)=C[C@H]2[C@@H]2C(C)(C)[C@]12OCC(C)C | luminescence | >50 µM |
| O=C(O)CCC1=C(CC(=O)O)c2cc3nc(cc4[nH]c(cc5[nH]c(cc1n2)c(CC(=O)O)c5CCC(=O)O)c(CC(=O)O)c4CCC(=O)O)C(CC(=O)O)=C3CCC(=O)O | - | 35 µg/mL |
| CCCCCCCCCCCCCCCCOCCCOP(=O)(O)CO[C@H](CO)Cn1cnc2c(N)ncnc21 | propidium iodide | 1 µM |
| OC1(Cc2ccccc2Cl)c2cc(Cl)c(Cl)cc2C2=NCCN21 | propidium iodide | 30.1 µM |
| COc1cc(/C=C2\C(=O)N(c3ccccc3)N=C2c2ccccc2)cc(Br)c1OCC(N)=O | XTT | 65.66 µM |

The first 7 rows once more:

SMILES | method | result
COc1ccc(N(C)C(=O)[C@H](Cc2ccccc2)NC(=O)NS(=O)(=O)N[C@@H](Cc2ccccc2)c2nc(C)no2)cc1 | XTT | 100 µM
O=c1[nH]nc(Cc2ccc3c(c2)OCO3)c2ccccc12 | propidium iodide | >178 µM
C[C@H]1/C=C/[C@@]2(C)CC[C@@H](C(C)(C)O)[C@@H]2[C@@H](O)C[C@](C)(O)/C=C/C1 | MTT | 1345–1456 µM
Cc1ccc(-c2ccc(C(=O)NC(CN(C)C)c3nc(C)c(CO)s3)[nH]2)cc1F | XTT / absorbance | >40 µM
COc1ccnc2[nH]cc(C(=O)C(=O)N3CCN(C(=O)c4ccccc4)C[C@H]3C)c12 | - | >225 µM
C[Si](C)(CCCSc1ncccn1)O[Si](C)(C)CCCSc1ncccn1 | - | 43 µM
Cc1cn([C@H]2CC[C@@H](CO)S2)c(=O)[nH]c1=O | - | >100 µg/mL